Anti-infective test results gathered from many reports (values: NIAID ChemDB through PubChem).

Common to all: whole-cell or culture tests; organism: Hepatitis B virus; cell line: HepG2 2.2.15; endpoint: EC50

ECn: concentration that inhibits the pathogen or its effect by n%. Conditions beyond the fields shown may differ between rows. Blank or dashed fields: not listed here.

smiles | strain | method | value
CC(=O)N[C@H]1C(O[C@@H]2[C@@H](O)[C@H](O)[C@@H](O)C[C@H]2OC(=O)[C@H]2C[C@H](O)[C@@]3(O)[C@@H](C2)O[C@@]2(C[C@H](OC(=O)c4ccccc4)[C@H](C)CO2)[C@@H]3O)O[C@H](CO)[C@@H](O)[C@@H]1O | - | ELISA / antigen | 6.6 µM
Cc1ccc(NCc2nnc(SCC(=O)NN)n2-c2ccccc2)cc1 | - | ELISA | 1 µM
COC(=O)C(C)(C)NP(=O)(OC[C@H]1O[C@@H](n2cnc3c(N)ncnc32)CC1F)Oc1ccccc1 | - | - | 0.007 µM
C[C@@H]1CO[C@@]2(C[C@@H]1OC(=O)c1ccc(O)cc1)O[C@]1(O)C[C@@H](C(=O)O[C@@H]3C[C@H](O)[C@@H](O)[C@H](O)[C@H]3OC3O[C@H](CO)[C@@H](O)[C@H](O)[C@H]3O)C[C@H](O)[C@]1(O)[C@H]2O | - | ELISA / antigen | 22.2 µM
Cc1nc2c(N)ncnc2n1[C@H]1CC[C@@H](CO)C1 | - | hybridisation | 6 µM
C=CCn1c(=O)c(/C(=N\Nc2ccccc2)C(O)C(O)CO)nc2ccccc21 | - | ELISA | 0.65 µM
Nc1ncnc2c1ncn2[C@H]1CC[C@@H](CO)C1 | - | hybridisation | 33 µM
S=c1nc(CNc2ccccc2)[nH][nH]1 | - | ELISA | 8 µM
Nc1ncnc2c1ccn2[C@H]1CC(F)[C@@H](CO)O1 | - | - | 117 µM
CC(=O)N[C@H]1C(O[C@@H]2[C@@H](O)[C@H](O)[C@@H](O)C[C@H]2OC(=O)[C@H]2C[C@H](O)[C@]3(O)[C@@H](O)[C@]4(C[C@H](OC(=O)c5ccc(O)cc5)[C@H](C)CO4)O[C@]3(O)C2)O[C@H](CO)[C@@H](O)[C@@H]1O | - | ELISA / antigen | 24 µM
Nc1ncnc2c1nc(-c1ccccc1)n2[C@H]1CC[C@@H](CO)C1 | - | hybridisation | >200 µM
C[C@H](NP(=O)(OC[C@@H]1C=C[C@H](n2ccc3c(N)ncnc32)C1)Oc1ccccc1)C(=O)OCc1ccccc1 | - | hybridisation | 11 µM
Nc1ncnc2c1ncn2[C@@H]1C[C@@H](F)[C@H](CO)O1 | - | - | 186 µM
COC1OC(CSc2nccc(=O)[nH]2)C(O)C1O | - | ELISA | <100 µM
Nc1ncnc2c1ccn2[C@@H]1C=C[C@H](CO)C1 | - | hybridisation | 2 µM
O=C1NC(=O)/C(=C/N2CCN(C(c3ccccc3)c3ccc(Cl)cc3)CC2)S1 | - | ELISA | 6.66 µM
COC1OC(CSc2nc(C)cc(=O)[nH]2)C(O)C1O | - | ELISA | >100 µM
CCc1c(Sc2ccc(F)cc2)[nH]c(=O)[nH]c1=O | - | hybridisation | >100 µM
Nc1ncnc2c1ncn2[C@H]1CC[C@@H](CO)O1 | - | - | >10 µM
Cc1ccc(NCc2nnc(Sc3ccccc3)o2)cc1 | - | ELISA | 3.9 µM
CCc1c(Sc2cc(C)cc(C)c2)[nH]c(=O)[nH]c1=O | - | hybridisation | >100 µM
CCCc1cc(=O)nc(SC)n1CC1OC(OC)C(O)C1O | - | ELISA | >100 µM
CCOC(=O)CSc1nnc(CNc2ccc(F)cc2)n1-c1ccccc1 | - | ELISA | 23.4 µM
COC(=O)[C@H](Cc1ccccc1)NP(=O)(OC[C@H]1C=C[C@@H](n2ccc3c(N)ncnc32)C1)Oc1ccccc1 | - | hybridisation | 0.055 µM
Nc1ncnc2c1nc(Cl)n2[C@H]1CC[C@@H](CO)C1 | - | hybridisation | 12 µM
CCC[C@H](Nc1nc(-c2ccc(NC(=O)NCC)c(OC)c2)ncc1C)c1cccnc1 | Genotype D | PCR | 0.0601 µM
CNc1ncnc2c1ncn2[C@H]1CC(F)[C@@H](COP(=O)(N[C@@H](C)C(=O)OC)Oc2ccccc2)O1 | - | - | 0.5 µM
C=C1[C@H](CO)[C@@H](O)C[C@@H]1n1cnc2c(=O)[nH]c(N)nc21 | - | - | 0.0038 µM
COC1OC(CSc2ncc(C)c(=O)[nH]2)C(O)C1O | - | ELISA | >100 µM
COc1ccc2c(=O)c(/C=C/C(=O)NCc3ccccc3)coc2c1 | - | PCR | >56.81 µM
O=c1cc(Sc2ccc(F)cc2)[nH]c(=O)[nH]1 | - | hybridisation | >100 µM
COC(=O)[C@H](C)NP(=O)(OC[C@H]1C=C[C@@H](n2ccc3c(N)ncnc32)C1)Oc1ccccc1 | - | hybridisation | 0.09 µM

4 of the rows above, restated:

| smiles | strain | method | value |
|---|---|---|---|
| Nc1ncnc2c1nc(Cl)n2[C@H]1CC[C@@H](CO)C1 | - | hybridisation | 12 µM |
| C[C@H](NP(=O)(OC[C@@H]1C=C[C@H](n2ccc3c(N)ncnc32)C1)Oc1ccccc1)C(=O)OCc1ccccc1 | - | hybridisation | 11 µM |
| CC(=O)N[C@H]1C(O[C@@H]2[C@@H](O)[C@H](O)[C@@H](O)C[C@H]2OC(=O)[C@H]2C[C@H](O)[C@]3(O)[C@@H](O)[C@]4(C[C@H](OC(=O)c5ccc(O)cc5)[C@H](C)CO4)O[C@]3(O)C2)O[C@H](CO)[C@@H](O)[C@@H]1O | - | ELISA / antigen | 24 µM |
| COC1OC(CSc2ncc(C)c(=O)[nH]2)C(O)C1O | - | ELISA | >100 µM |